# Data as given in publication PMC3828167 (PLoS Pathogens, 2013).
# Target: Legionella pneumophila RalF Sec7 domain with E103K (LpRalF^Sec7/E103K) (Legionella pneumophila, UniProt Q8RT31 1-201, E103K)
# Assay: SEC
binder,measurement,value
"Human Arf1 lacking its N-terminal alpha-helix (Δ17Arf1) (domain or fragment, UniProt P84077 18-181, looked up, also called Arf1-GDP; nucleotide-free Arf1) MRILMVGLDAAGKTTILYKLKLGEIVTTIPTIGFNVETVEYKNISFTVWDVGGQDKIRPLWRHYFQNTQGLIFVVDSNDRERVNEAREELMRMLAEDELRDAVLLVFANKQDLPNAMNAAEITDKLGLHSLRHRNWYIQATCATSGDGLYEGLDWLSNQLRNQK",binding result,binds
